Compound potency records, mixed from different reports. Data source: NIAID ChemDB in PubChem.

Shared fields: tests on isolated targets; organism: HIV-1; target: Reverse transcriptase; method: nucleotide incorporation; measure: IC50

An empty or dashed field is not shown. ICn is the concentration giving n% inhibition. a–b is a range or a potency band. Conditions beyond the fields shown may differ between rows.

SMILES,mutations,strain,result
CCCN(C)C(=O)Oc1nsnc1-c1c(Cl)cccc1Cl,RT-Y181C,IIIB-R (RT-Y181C),111 µM
Cc1cn([C@H]2C[C@H](N=[N+]=[N-])[C@@H](COP(=O)(O)OP(=O)(O)CP(=O)(O)O)O2)c(=O)[nH]c1=O,,IIIB,7.9 µM
CN(C)C(=O)Oc1nsnc1-c1c(Cl)cccc1Cl,,IIIB,5.1 µM
CSC[C@H]1C(=S)Nc2ccc(F)cc2N1C(=O)OC(C)C,,,0.01–0.1 µg/mL
O=C1OCC2OC(=O)c3cc(O)c(O)c(O)c3-c3c(O)c(O)c(O)c4c3C(=O)OC(C2OC(=O)c2cc(O)c(O)c(O)c2-c2c1cc(O)c(O)c2O)C1OC(=O)c2c-4c(O)c(O)c(O)c2[C@@H]1O,,,>20 µg/mL
COc1ccc2c(c1)N(C(=O)OC(C)C)[C@@H](CCSC)C(=S)N2,,,0.1–1 µg/mL
C/C=C/C=C1\C=Cc2c(C(=O)OC)coc(=O)c21,,,45 µg/mL
C=C(C)OC(=O)N1c2cc(Cl)ccc2NC(=O)C12CCC2,,,0.1–1 µg/mL
Cc1cc(C)cc(Cc2cc(=O)[nH]c(OC(C)C)n2)c1,,IIIB,3.2 µM
C=C(C)[C@@H]1CC[C@]2(C)CC[C@]3(C)[C@H](CC[C@@H]4[C@@]5(C)CC[C@H](OC(C)=O)C(C)(C)[C@@H]5CC[C@]43C)[C@@H]12,,,6.4 µM
CC(C)=CCN1Cc2cccc3[nH]c(=S)n(c23)C[C@@H]1C,,NDK,0.7 µM
CC1(C)CC[C@]2(C)CC[C@]3(C)C(=CC[C@@H]4[C@@]5(C)CC[C@H](O)C(C)(C)[C@@H]5CC[C@]43C)[C@@H]2C1,,,4.7 µM
O=C(O[C@@H]1OC2CC(=O)c3cc(O)c(O)c(O)c3-c3c(cc(O)c(O)c3O)C(=O)OC2C(O)C1O)c1cc(O)c(O)c(O)c1,,,<20 µg/mL
CC(C)=CCN1Cc2cccc3[nH]c(=S)n(c23)C[C@@H]1C,,,0.14 µM
O=c1c(O[C@@H]2OC[C@H](O)[C@H](O)[C@H]2O)c(-c2ccc(O)c(O)c2)oc2cc(O)cc(O)c12,,,>1000 µM
CCC(C)Oc1nc(Cc2cccc(C)c2)c(C)c(=O)[nH]1,,IIIB,2.1 µM
C=C(C)[C@@H]1CC[C@]2(C=O)CC[C@]3(C)[C@H](CC[C@@H]4[C@@]5(C)CC[C@H](O)C(C)(C)[C@@H]5CC[C@]43C)[C@@H]12,,,>45 µM
Cc1csc(NC(=S)N[C@H](C)c2ccccc2)n1,,,0.8 µM
Cc1cc(C)cc(Cc2nc(OCC(C)C)[nH]c(=O)c2C)c1,,IIIB,>10 µM
C[C@H]1[C@H](C)CC[C@]2(CO)CC[C@]3(C)C(=CC[C@@H]4[C@@]5(C)CC[C@H](O)C(C)(C)[C@@H]5CC[C@]43C)[C@H]12,,,9.5 µM
CC(C)=CCN1Cc2cccc3[nH]c(=S)n(c23)C[C@@H]1C,,NL4-3,2.22 µM
CC(=O)c1ccc(C)cc1NC(C(N)=O)c1c(Cl)cccc1Cl,,IIIB,0.3 µM
CC(C)=CCOc1cc(NC(=S)c2ccoc2C)ccc1Cl,,,0.005 µg/mL
CCN1c2ncccc2C(=O)N(C)c2ccc(-c3c[nH]c4cnccc34)nc21,RT-V106A,,0.288 µM
C=C(C)OC(=O)N1c2ccc(C)cc2NC(=O)C1(CC)CC,,,0.01–0.1 µg/mL
CCc1cc(CCc2nc3ccccc3o2)c(=S)[nH]c1C,RT-K103N Y181C,,11 µM
CN(c1ncccc1CO)C1CCN(C(=O)c2cc3cc(NS(C)(=O)=O)ccc3[nH]2)CC1,RT-Y181C,IIIB,>50 µM
O=C1OCC2OC(=O)c3cc(O)c(O)c(O)c3-c3c(O)c(O)c(O)c4c3C(=O)OC(C2OC(=O)c2cc(O)c(O)c(O)c2-c2c1cc(O)c(O)c2O)C1OC(=O)c2c-4c(O)c(O)c(O)c2C1c1c(O)cc(O)c2c1O[C@H](c1ccc(O)c(O)c1)C(O)C2,,,>20 µg/mL
CCc1cc(CCc2nc3c(Cl)ccc(Cl)c3o2)c(=S)[nH]c1C,RT-Y181C,,0.05 µM
Cc1c(Sc2ccccc2)n(COCCO)c(=O)[nH]c1=O,,,53 µM
CCN1c2cc(C)c(C)cc2N(C)S(=O)(=O)c2cccnc21,,,20 µM
O=c1c(O)c(-c2ccc(O)c(O)c2)oc2cc(O)cc(O)c12,,,635 µM
Cc1cn([C@H]2CC[C@@H](COP(=O)(O)OP(=O)(O)OP(=O)(O)O)O2)c(=O)[nH]c1=O,,,0.024 µM
Cc1[nH]c(=O)c(CCc2nc3ccccc3o2)cc1C(C)C,,,0.05 µM
O=C(O[C@@H]1O[C@@H]2COC(=O)c3cc(O)c(O)c(O)c3-c3c(cc(O)c(O)c3O)C(=O)O[C@H]([C@H]1O)[C@@H]2O)c1cc(O)c(O)c(O)c1,,,<20 µg/mL
Fc1cccc(F)c1C1SCc2nc3ccccc3n21,,,7.3 µM
COc1cc2c(c(OC)c1OC)-c1c(cc3c(c1OC)OCO3)C[C@H](C)[C@H](C)C2,,,29 µM
CCc1cc(CCc2nc3ccccc3o2)c(=O)[nH]c1C,,RT-WT,0.035 µM
O=C1OC2[C@@H](CO)O[C@@H](OC(=O)c3cc(O)c(O)c(O)c3)[C@H](OC(=O)c3cc(O)c(O)c4c3[C@@H]3C1=CC(=O)C(O)(O)C3(O)O4)[C@H]2O,,,>20 µg/mL
O=C(O)c1cc(O)c(O)c(O)c1,,,>1000 µM
CCN1c2ncccc2C(=O)N(C)c2ccc(-c3ncc[nH]3)nc21,RT-Y181C,,0.74 µM
Cc1cccc2sc(NC(=S)N[C@H](C)c3ccccc3)nc12,,,8.7 µM
CC(C)Nc1cccnc1N1CCN(C(=O)c2cc3ccccc3[nH]2)CC1,,,0.97 µM
Cc1c([C@@H](C)c2c(F)cccc2F)nc(SC2CCCC2)[nH]c1=O,,,1 µM
COc1ccc2nc(NC(=S)N[C@H](C)c3ccccc3)sc2c1,,,>100 µM
Nc1ncnc2c1ncn2[C@@H]1O[C@H](COP(=O)(O)OP(=O)(O)OP(=O)(O)O)C[C@@H]1F,,,76 µM
COc1nc(Cc2cccc(C)c2)cc(=O)[nH]1,,IIIB,>10 µM
O=C(OCC(COC(=O)c1ccc(O)cc1)OC(=O)c1ccc(O)cc1)c1ccc(O)cc1,,,>50 µM
CCC(C)Oc1nc(Cc2cc(C)cc(C)c2)c(C)c(=O)[nH]1,,IIIB,2 µM
CC(C)=CCN1Cc2cccc3[nH]c(=S)n(c23)C[C@@H]1C,,,8 µM
Fc1cccc(F)c1C1SCc2nc3ccccc3n21,,,14.6 µM
CCOc1ccc2c(c1)N(C(=O)OC(C)C)[C@@H](CSC)C(=S)N2,,,0.001–0.01 µg/mL
O=C(OC[C@H]1O[C@@H](OC(=O)c2cc(O)c(O)c(O)c2)[C@H](O)[C@@H](OC(=O)c2cc(O)c(O)c(O)c2)[C@@H]1OC(=O)c1cc(O)c(O)c(O)c1)c1cc(O)c(O)c(O)c1,,,86 µM
Cc1cccc(Cc2cc(=O)[nH]c(=O)[nH]2)c1,,IIIB,>10 µM
CCN1c2ncccc2C(=O)N(C)c2ccc(-c3cccc(N)c3)nc21,,,0.1 µM
O=c1c(O[C@@H]2O[C@H](CO)[C@@H](O)[C@H](O)[C@H]2O)c(-c2ccc(O)c(O)c2)oc2cc(O)cc(O)c12,,,50 µM
Fc1cccc(F)c1[C@@H]1SCc2nc3ccccc3n21,,,489.1 µM
C=C(C)OC(=O)N1c2cc(Cl)ccc2NC(=S)C1(C)C,,MN,0.14 µM
CCN(C)C(=O)Oc1nsnc1-c1c(Cl)cccc1Cl,,IIIB,0.16 µM
Cc1cc(=O)oc2c3c(c4c(c12)OC(C)(C)C=C4)O[C@H](C)[C@@H](C)[C@H]3O,,,19 µM
Cc1cn([C@H]2C[C@H](N=[N+]=[N-])[C@@H](COP(=O)(O)O)O2)c(=O)[nH]c1=O,,IIIB,>1000 µM
CCCCN(C)C(=O)Oc1nsnc1-c1c(Cl)cccc1Cl,RT-Y181C,IIIB-R (RT-Y181C),155 µM
CC[C@H](CC[C@@H](C)[C@H]1CC[C@H]2[C@@H]3CC[C@H]4C[C@@H](O)CC[C@]4(C)[C@H]3CC[C@]12C)C(C)C,,,3.9 µM
COc1cccc2c1N(C(=O)OC(C)C)C(CSC)C(=S)N2,,,0.01–0.1 µg/mL
CC1=CC[C@H](O)C(C)(C)[C@@H]1CC/C(C)=C/CCC1=C(C)CC[C@@]2(C)CCC(C)(C)C[C@@H]12,,,>47 µM
CCC(C)Oc1nc(Cc2cc(C)cc(C)c2)cc(=O)[nH]1,,IIIB,3.4 µM
C[C@H](CNC(=S)Nc1ccccn1)c1ccccc1,,,3.5 µM
COC(=O)C(Cc1ccccc1)NC(=O)[C@@H](NC(=O)[C@@H](C[C@H](O)[C@H](CC1CCCCC1)NC(=O)[C@@H](NC(=O)[C@H](Cc1ccccc1)CS(=O)(=O)C(C)(C)C)C(C)C)C(C)C)C(C)C,,IIIB,0.3 µM

10 of the rows above, restated:

SMILES | mutations | strain | result
Cc1cc(C)cc(Cc2cc(=O)[nH]c(OC(C)C)n2)c1 |  | IIIB | 3.2 µM
Cc1cc(=O)oc2c3c(c4c(c12)OC(C)(C)C=C4)O[C@H](C)[C@@H](C)[C@H]3O |  |  | 19 µM
CN(C)C(=O)Oc1nsnc1-c1c(Cl)cccc1Cl |  | IIIB | 5.1 µM
COc1nc(Cc2cccc(C)c2)cc(=O)[nH]1 |  | IIIB | >10 µM
Cc1c(Sc2ccccc2)n(COCCO)c(=O)[nH]c1=O |  |  | 53 µM
COc1cccc2c1N(C(=O)OC(C)C)C(CSC)C(=S)N2 |  |  | 0.01–0.1 µg/mL
Cc1cn([C@H]2CC[C@@H](COP(=O)(O)OP(=O)(O)OP(=O)(O)O)O2)c(=O)[nH]c1=O |  |  | 0.024 µM
C=C(C)OC(=O)N1c2cc(Cl)ccc2NC(=O)C12CCC2 |  |  | 0.1–1 µg/mL
Cc1cccc(Cc2cc(=O)[nH]c(=O)[nH]2)c1 |  | IIIB | >10 µM
CC(C)Nc1cccnc1N1CCN(C(=O)c2cc3ccccc3[nH]2)CC1 |  |  | 0.97 µM